Results of unrelated studies side by side (data: NIAID ChemDB).

All rows: tests in culture; agent: Plasmodium falciparum

Neighbouring rows are from separate reports. ECn is the concentration giving n% inhibition of infection, replication or growth. An empty or dashed field is not shown.

compound,strain,read-out,cells,conditions,mutations,method,value
C[C@H](NC(=O)[C@H](Cc1ccccc1)C[C@@H](O)[C@H](Cc1ccccc1)NC(=O)OC(C)(C)C)C(=O)N[C@@H]1C(=O)N(C)c2ccccc2-c2ccccc21,,EC50,,,,,0.017 µM
COc1cc(C(C)=O)ccc1OC1CC(O)C(O)C(COC(=O)/C=C/c2ccccc2)O1,3D7,EC50,Erythrocytes,,,,>25 µM
N=C(N)c1cccc(OCCCOc2cccc(C(=N)N)c2)c1,W2,EC50,,,,hypoxanthine uptake,0.11 µM
Cc1ccc(C2Nc3ccccc3C(=O)N2CCCCN2CCOCC2)cc1,3D7,EC50,,,,luciferase,>20 µM
CN(C)c1ccc2nc3ccc(=[N+](C)C)cc-3sc2c1,Clinical isolates,EC50,,,,,0.0033 µM
COc1cc2c(cc1/C=C/C(=O)c1ccc3c(c1)OCO3)C1CC[C@@]3(C)C(CC[C@@H]3O)C1CC2,NF54,EC50,,,,LDH,24.31 µM
Cc1ccc(-n2cc(C(=O)O)c(-c3ccccc3)n2)cc1,RKL9,EC50,,,,,0.036 µM
COc1cc2c(cc1/C=C/C(=O)c1ccc(Br)cc1)C1CC[C@@]3(C)C(CC[C@@H]3O)C1CC2,NF54,EC50,,,,LDH,30.56 µM
O=Cc1cn(-c2ccc(Cl)cc2)nc1-c1ccccc1,RKL9,EC50,,,,,0.041 µM
CC[C@H]1OC(=O)[C@H](C)[C@@H](OC2C[C@@](C)(OC)[C@@H](O)[C@H](C)O2)[C@H](C)[C@@H](OC2O[C@H](C)C[C@H](N(C)C)[C@H]2O)[C@](C)(OC2C[C@@H](N(C)C)[C@@H](O)[C@H](C)O2)C[C@@H](C)C(=O)[C@H](C)[C@@H](O)[C@]1(C)O,W2 Mef,EC50,RBC,120 h,,fluorescence,0.72 µM
N=C(N)c1ccc(OCCCCCCOc2ccc(C(=N)N)cc2)cc1,W2,EC50,,,,hypoxanthine uptake,0.256 µM
O=C(O)c1cn(-c2ccc(Cl)cc2)nc1-c1ccccc1,RKL9,EC50,,,,,0.033 µM
CN1CCC(NC2=CCC3=NC=C(c4cnn(-c5ccc(F)cc5F)c4)[N+]3=N2)CC1,,EC50,,,,,0.317 µM
Cc1cn([C@H]2C[C@H](O)[C@@H](CNS(=O)(=O)c3ccc([N+](=O)[O-])cc3)O2)c(=O)[nH]c1=O,,EC50,,,,SYBR Green,>100 µM
CCN(CC)CCCC(C)Nc1ccnc2cc(Cl)ccc12,Dd2,EC50,RBC,,,MTT / LDH,0.34 µM
CC1(C)C2CC=C3C(CC[C@@]4(C)C5C[C@](C)(C(=O)O)CC[C@]5(C)CC[C@]34C)[C@@]2(C)CCC1(O)O,FCM29,EC50,,,CQ-resistant,SYBR Green,5.2 µM
CNC(=O)CCCC(=O)N[C@@H](CC(C)C)C(=O)N[C@@H](CC(C)C)C(=O)NCC(=O)CNC(=O)[C@H](CC(C)C)NC(=O)[C@H](CC(C)C)NC(=O)c1ccc(C(=O)c2ccccc2)cc1,,EC50,,,,,1.5 µM
COc1cc2c(cc1C1CC(=O)c3cc(OC)c(OC)c(OC)c31)C1CC[C@@]3(C)C(CCC[C@@H]3OC(C)=O)C1CC2,NF54,EC50,,,,LDH,16.39 µM
Cn1cc(O)c(=O)cc1CNCCNc1ccnc2cc(Cl)ccc12,K1,EC50,,,,radiometric,1.75 µM
O=C(/C=C/c1ccc(O)c(O)c1)OCC1OC(OCC(O)C(O)C(O)C(O)CO)CC(O)C1O,3D7,EC50,Erythrocytes,,,,>25 µM
CCCCCCCCCCCCCCC#CC(=O)O,K1,EC50,,,,,41.2 µM
O=c1cc(CNCCCNc2ccnc3cc(Cl)ccc23)n(C2CC2)cc1O,K1,EC50,,,,radiometric,0.72 µM
CCN(CC)CCN1C(=O)c2ccccc2NC1c1ccc(F)cc1,3D7,EC50,,,,luciferase,1.69 µM
COc1cc2c(cc1/C=C/C(=O)c1ccc(Cl)cc1)C1CC[C@@]3(C)C(CC[C@@H]3O)C1CC2,NF54,EC50,,,,LDH,160 µM
CCN(CC)CCCC(C)Nc1ccnc2cc(Cl)ccc12,W2,EC50,,,,hypoxanthine uptake / radiometric,0.29 µM
CCN(CC)CCNC(=O)c1sc(-c2cccnc2)nc1-c1ccccc1,3D7,EC50,,,,,>19.3 µg/mL
c1cc(C2=NCCN2)ccc1OCCCOc1ccc(C2=NCCN2)cc1,W2,EC50,,,,hypoxanthine uptake,0.124 µM
c1ccc(CNC23OC4C5C2C2C5C56CC25C3C46)cc1,Dd2,EC50,,,,LDH / absorbance,>2 µM
NCCC1=c2c(O)c3c(c(O)c2N=C1)=NC=CS3(=O)=O,Dd2,MIC,,,,,0.0066 µM
N=C(N)c1ccc(OCCCCCOc2ccc(C(=N)N)cc2[N+](=O)[O-])c([N+](=O)[O-])c1,W2,EC50,,,,hypoxanthine uptake,0.114 µM
CC[C@H]1OC(=O)[C@H](C)[C@@H](OC2C[C@@](C)(OC)[C@@H](O)[C@H](C)O2)[C@H](C)[C@@H](OC2O[C@H](C)C[C@H](N(C)C)[C@H]2O)[C@](C)(OC2C[C@@H](N(C)C)[C@@H](O)[C@H](C)O2)C[C@@H](C)CN(C)[C@H](C)[C@@H](O)[C@]1(C)O,W2 Mef,EC50,RBC,48 h,,fluorescence,1.8 µM
O=C(NCCN1CCOCC1)c1sc(-c2ccccc2)nc1-c1ccccc1,3D7,EC50,,,,,>19.3 µg/mL
O=C(/C=C/c1ccccc1)OCC1OC(OCC(O)C(O)C(O)C(O)CO)CC(O)C1O,3D7,EC50,Erythrocytes,,,,>25 µM
Cn1cc(O)c(=O)cc1CNCCCNc1ccnc2cc(Cl)ccc12,K1,EC50,,,,radiometric,0.27 µM
CCN(CC)CCN1C(=O)c2ccccc2NC1c1ccc2c(c1)OCO2,3D7,EC50,,,,luciferase,>20 µM
CCN(CC)CCCC(C)Nc1ccnc2cc(Cl)ccc12,K14,EC50,,,,,11 µM
O=C1C(=O)c2ccccc2C(O)=C1c1ccc([N+](=O)[O-])cc1,3D7,EC50,Erythrocytes,,,flow cytometry,13.7 µM
C=CC(C)(C)c1ccc2c3c(c[nH]c13)C[C@@H](CO)NC(=O)[C@H]([C@@H](C)CC)N2,Dd2,EC50,,,,,19.67 µM
O=C1C=C(O)c2ccccc2C1=O,3D7,EC50,Erythrocytes,,,flow cytometry,89 µM
COc1cc2nc(N3CCCN(C)CC3)nc(NC3CCN(Cc4ccccc4)CC3)c2cc1OC,Dd2,EC50,,,,fluorescence,0.072 µM
CCCCN1C(=O)c2ccccc2NC1c1ccc(OC)cc1,3D7,EC50,,,,luciferase,>20 µM
NC1CCC(NC2=CCC3=NC=C(c4cn[nH]c4)[N+]3=N2)CC1,,EC50,,,,,0.103 µg/mL
O=c1cc(CNCCCCNc2ccnc3cc(Cl)ccc23)n(C2CC2)cc1O,3D7,EC50,,,,radiometric,0.17 µM
CN1CCC(NC2=CCC3=NC=C(c4cnn(-c5ccc(F)cn5)c4)[N+]3=N2)CC1,,EC50,,,,,0.602 µM
CN(CCCNc1ccnc2cc(Cl)ccc12)Cc1cc(=O)c(O)cn1C1CC1,K1,EC50,,,,radiometric,0.46 µM

A second listing of 5 rows from above:

compound | strain | read-out | cells | conditions | mutations | method | value
COc1cc2c(cc1/C=C/C(=O)c1ccc3c(c1)OCO3)C1CC[C@@]3(C)C(CC[C@@H]3O)C1CC2 | NF54 | EC50 |  |  |  | LDH | 24.31 µM
CC[C@H]1OC(=O)[C@H](C)[C@@H](OC2C[C@@](C)(OC)[C@@H](O)[C@H](C)O2)[C@H](C)[C@@H](OC2O[C@H](C)C[C@H](N(C)C)[C@H]2O)[C@](C)(OC2C[C@@H](N(C)C)[C@@H](O)[C@H](C)O2)C[C@@H](C)CN(C)[C@H](C)[C@@H](O)[C@]1(C)O | W2 Mef | EC50 | RBC | 48 h |  | fluorescence | 1.8 µM
c1ccc(CNC23OC4C5C2C2C5C56CC25C3C46)cc1 | Dd2 | EC50 |  |  |  | LDH / absorbance | >2 µM
Cc1cn([C@H]2C[C@H](O)[C@@H](CNS(=O)(=O)c3ccc([N+](=O)[O-])cc3)O2)c(=O)[nH]c1=O |  | EC50 |  |  |  | SYBR Green | >100 µM
CCN(CC)CCCC(C)Nc1ccnc2cc(Cl)ccc12 | W2 | EC50 |  |  |  | hypoxanthine uptake / radiometric | 0.29 µM